## Results of single-concentration screens

The values are deposited in ChEMBL (CHEMBL3988442, “University of Dundee, Small-Polar-MMV Screening Library” (2021)).

Mtb glucose medium: 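Phenotypic screen: M. tuberculosis growth, glucose 7H9 medium, 3 days; the read-out is not stated. Tested at 50 µM. The record gives no direction; compounds that gave an IC50 in retests scored well above the rest, so higher reads as more growth inhibition. About 69,000 compounds were tested under these conditions; 1.1% (about 760) showed 50% or more at least once.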
Mtb cholesterol medium: 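Phenotypic screen: M. tuberculosis growth, cholesterol and DPPC medium, 4 days; the read-out is not stated. Tested at 50 µM. The record gives no direction; compounds that gave an IC50 in retests scored well above the rest, so higher reads as more growth inhibition. Of about 69,000 compounds tested this way, about 370 (0.54%) reached 50% or more in at least one test.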

Each number is a percent effect as filed.
The record does not define 0% and 100%; most values in the screen are far below 50% and negative numbers occur (in some assays of this library far below -100).
This is part of a subset picked to be rich in strong results.
Two or more numbers in one place are separate tests of the same structure; such repeats can differ widely.
A dash means the value is not listed here; it may have been measured.

Compound | Mtb glucose medium | Mtb cholesterol medium
CN(C)CCN1C(=O)CCC12CCN(C(=O)c1cccnc1)CC2.O=C(O)C(F)(F)F.O=C(O)C(F)(F)F | - | 6.394%
COc1cc(Oc2ccc(C#N)cn2)ccc1CN1CCCC1 | 45.31% | 22.68%
Cc1ccsc1CN(c1nc(CCN)nc2ccccc12)C1CC1 | 52.79% | -
CC(C)Nc1nc(N2CCCC2)nc2c1CN(C)CC2 | -0.6525% | -
CCN(Cc1cnn(C)c1)C[C@H]1CC[C@@H](Cc2cccc(C#N)c2)O1 | - | -6.09%
NS(=O)(=O)c1cccnc1Nc1cccc(Cl)c1Cl | - | 12.32%
Cc1ccc2c(c1)CCC21CCN(CCO)CC1 | 6.449% and 1.678% | 3.909%
CC1CCCN(c2ccc(C(N)=O)cc2NC(=O)CC2=CCNCC2)C1 (configuration not stated) | 56.22% | -
CCOCCC(=O)N1CCCN(c2ccccc2C)CC1 | 23.15% | 17.47%
CN(CCn1cnc(-c2ccccc2)c1-c1ncc[nH]1)S(C)(=O)=O | -8.969% and -3.022% | -
N#Cc1cccnc1N1CCC(OCCc2ccccc2)CC1 | 15.25% | -
Clc1ccc(C2(CNC3=NCCN3)CCCCC2)cc1.I | 46.5% | -
CN(C)c1ncccc1CNS(=O)(=O)c1cc(F)cc(F)c1 | 5.069% | -
COCCC(=O)N1CCC2(CC1)CC(c1ccccc1)CN(C1CC1)C2 (configuration not stated) | -26.86% | 7.913%
CN1CCCN(C[C@H]2C[C@H](CO)CN(Cc3cccnc3N)C2)CC1 | - | -52.82%
Cn1ccc(-c2cc(C(=O)N3CCCCC3)c3ccccn23)n1 | 11.3% | -
COCCN(Cc1ccoc1)S(=O)(=O)c1ccc(F)c(Cl)c1 | - | 77.9%
O[C@H]1CN(c2nc(-c3ccccc3)no2)C[C@@H]1N1CCOCC1 | 0.01803% | -
Cc1ccc(N2CCC(c3[nH]ncc3Cc3ccccc3)CC2)nn1 | 23.96% | -
Cn1cc(CN2CCCC(CCc3ccc(F)cc3F)C2)cn1 (configuration not stated) | 2.071% | 9.703%
OCCN(Cc1nc(-c2ccc3c(c2)OCO3)no1)Cc1cccs1 | 21.07% | -
Fc1ccccc1CN1CCC[C@H](Cn2nnc(-c3cccs3)n2)C1 | 2.878% | -28.16% and 57.08%
CCN(C)c1ccc(C(=O)NCCCc2ccccn2)cn1 | 5.883% | -
CCC(C)Oc1ccc(CNCCc2c[nH]cn2)cc1Cl (configuration not stated) | - | 25.25%
Cc1noc(COCC(=O)N2CCCCC2c2nccs2)n1 (configuration not stated) | - | 66.36%
CC(O)c1cccc(Nc2nc(NCCO)c3ccccc3n2)c1 (configuration not stated) | 18.77% | 18.67%
CN(Cc1ccco1)C(=O)c1cccc(N2CCCC2=O)c1 | - | -7.688%
[H][C@@]12CCCO[C@]1([H])[C@H](NC(=O)CC1CC1)CN(Cc1ccoc1)C2 | - | 98.22%
CC(=O)N1CCCC1c1cccc(Cc2ccccc2Cl)n1 (configuration not stated) | 36.47% | -
CCc1cc(CNC(=O)N(C2CC2)C(C)c2ccco2)[nH]n1 (configuration not stated) | 21.09% | 7.124%
Cc1ccc(C(=O)NCCCC2(C3OCCO3)CCOCC2)cc1C | 7.269% and 12.26% | -
CC(C)c1noc(CCC(=O)N2CCSCC2)n1 | -4.656% | -
CN(Cc1nc(Cc2cccc(C(F)(F)F)c2)no1)C(C1CC1)C1CC1 | 48.28% and 22.12% | -
c1ccc(CN2CCC(NCCSc3cnn[nH]3)CC2)cc1 | - | -9.922%
Fc1cccc(Cl)c1CNCCCOc1ccccn1 | -3.739% and 7.442% | -
CN1CCN(C(=O)C2CCN(c3cccnn3)CC2)CC1 | -30.3% | -
Cc1cc(C)n(-c2nc(NCCCO)c3c4c(sc3n2)CCCC4)n1 | 60.08% | -
CC(C)(C)CC(=O)N1CCC(c2nn(CCN)c3nccnc23)C1 (configuration not stated) | - | -4.648%
O=C(Nc1ccc(F)c(Cl)c1)N1CCCN([C@H]2COC[C@@H]2O)CC1 | -20.39% | 0.7283%
Clc1ccccc1-c1nnc(CNCCn2cccn2)o1 | 10.07% | -
CCc1[nH]c2c(CNc3nccc(N)n3)cc(F)cc2c1C | 44.65% | 17.4%
O=C(O)C(F)(F)F.O=C1N(Cc2ccncc2)CCC12CCCN(c1ncc(F)cn1)C2 (configuration not stated) | - | 23.86%
Cc1ncc(-c2ccnc(N3CCCCCC3)n2)c(-c2cccnc2)n1 | -20.63% | -
Cc1noc(NC(=O)c2ccc(Br)s2)n1 | 68.23% | -
COc1cccc(OC)c1-c1ccnc2cc(CC(=O)NC(C)C)nn12 | 50.41% | -
CC(=O)Nc1cc(C2CC2)nn1-c1nc(C)c(C)c(=O)[nH]1 | 24.75% | -
O=C(c1cc(COc2ccc3c(c2)OCO3)[nH]n1)N1CCSCC1 | - | 50.54% and 52.12%
N#CC1(C(=O)NCCCNc2ccc(C(F)(F)F)cn2)CCCC1 | 109.7% | 92.99%
O=C(C1CC(=O)N(c2ccccc2Br)C1)N1CCCCCC1 (configuration not stated) | 6.776% | -27.47%
COc1cc(Cl)cc(CN2CCCC(N3CCOCC3)C2)c1OC (configuration not stated) | 5.154% | -